Results from publication PMC12886537.
Negatives hold for the conditions tested. At least one verdict was read from the data and is not stated in words by the source. For part of these data: Where a protein sequence is shown, tags need not be part of it.

Amino acid sequences for entries named in this document (tags omitted). Residues count along the entry.
UniProt P02771, 19-609: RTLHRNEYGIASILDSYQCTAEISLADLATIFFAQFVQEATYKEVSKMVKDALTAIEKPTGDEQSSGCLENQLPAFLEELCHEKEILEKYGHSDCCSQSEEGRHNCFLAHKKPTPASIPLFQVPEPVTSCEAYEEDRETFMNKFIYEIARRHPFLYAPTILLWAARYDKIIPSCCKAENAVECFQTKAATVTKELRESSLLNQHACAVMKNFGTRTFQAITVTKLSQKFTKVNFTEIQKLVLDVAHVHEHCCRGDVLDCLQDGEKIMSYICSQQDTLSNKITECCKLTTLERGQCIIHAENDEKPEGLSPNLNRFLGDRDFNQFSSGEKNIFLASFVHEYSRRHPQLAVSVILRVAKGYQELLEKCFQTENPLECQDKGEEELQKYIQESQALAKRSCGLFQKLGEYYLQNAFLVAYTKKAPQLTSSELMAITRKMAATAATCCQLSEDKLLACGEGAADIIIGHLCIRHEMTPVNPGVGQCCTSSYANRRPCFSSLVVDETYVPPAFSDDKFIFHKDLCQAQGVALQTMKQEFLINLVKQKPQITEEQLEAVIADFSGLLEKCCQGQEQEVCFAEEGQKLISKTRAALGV
UniProt P02769, 25-607: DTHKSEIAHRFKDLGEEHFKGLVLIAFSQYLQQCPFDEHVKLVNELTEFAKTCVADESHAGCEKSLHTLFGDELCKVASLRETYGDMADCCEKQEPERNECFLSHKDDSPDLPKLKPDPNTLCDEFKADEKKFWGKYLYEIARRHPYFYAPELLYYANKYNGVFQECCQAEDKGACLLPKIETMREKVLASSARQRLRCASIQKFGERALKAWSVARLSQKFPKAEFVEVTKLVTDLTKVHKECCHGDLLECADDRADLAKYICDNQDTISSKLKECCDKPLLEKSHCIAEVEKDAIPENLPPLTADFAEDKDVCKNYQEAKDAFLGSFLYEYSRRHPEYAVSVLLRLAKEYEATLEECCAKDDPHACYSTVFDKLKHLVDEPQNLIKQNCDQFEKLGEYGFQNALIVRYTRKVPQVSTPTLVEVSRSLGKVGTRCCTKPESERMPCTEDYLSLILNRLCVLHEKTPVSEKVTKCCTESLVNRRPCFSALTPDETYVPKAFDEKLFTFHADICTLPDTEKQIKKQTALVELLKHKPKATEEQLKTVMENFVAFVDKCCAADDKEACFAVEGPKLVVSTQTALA

Experiments:
Experiment in all cases: ELONA
Details in all cases: 400 nM NP14; commercial protein; label: biotin (ELONA), 5'-FAM (flow cytometry, confocal); folded or branched DNA
[1] = biological target: alpha-fetoprotein (AFP) (UniProt P02771)
[2] = biological target: bovine serum albumin (BSA) (bovine) (UniProt P02769)
[3] = biological target: T1, interleukin-4 (IL-4) (UniProt P05112)
T1 sequence (looked up, limits assumed): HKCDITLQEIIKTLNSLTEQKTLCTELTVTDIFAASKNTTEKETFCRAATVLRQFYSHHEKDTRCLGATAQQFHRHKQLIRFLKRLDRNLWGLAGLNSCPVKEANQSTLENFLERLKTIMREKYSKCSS

Measured: binding result

TTTTTAACACGACTCTCCTGTGGCCAGCGAACTGATTGCCTGTCGTGCCATG [NP14]
no binding: [1] | [2] | [3]
